Compound potency records, mixed from different reports. Data source: NIAID ChemDB in PubChem.

Common to all: toxicity to cultured cells; cells: MT-4; read by: trypan blue; endpoint: CC50

Conditions beyond the fields shown may differ between rows.

SMILES	value
Cc1cn([C@H]2CC[C@@H](COP(=O)(OC[C@@H]3CC[C@H](n4cc(C)c(=O)[nH]c4=O)O3)Oc3ccc(S(C)(=O)=O)cc3)O2)c(=O)[nH]c1=O	>250 µM
Cc1cn([C@@H]2O[C@@H](CO[Si](C)(C)C(C)(C)C)C3(OS(=O)(=O)C=C3N)[C@@H]2O[Si](C)(C)C(C)(C)C)c(=O)[nH]c1=O	83 µg/mL
Nc1ncnc2c1ncn2[C@@H]1C=C[C@@H](O)[C@H]1O	0.9 µg/mL
CS(=O)(=O)c1ccc(OP(=O)(OC[C@@H]2C=C[C@H](n3cnc4c(=O)[nH]cnc43)O2)OC[C@@H]2C=C[C@H](n3cnc4c(=O)[nH]cnc43)O2)cc1	>250 µM
CC(=O)O[C@@H]1[C@H](n2cc(C)c(=O)[nH]c2=O)O[C@@H](COC(=O)c2ccccc2)C12OS(=O)(=O)C=C2N	86 µg/mL
COC(=O)[C@@H](CCSC)NP(=O)(OC[C@H]1C=C[C@@H](n2cnc3c(N)ncnc32)C1)Oc1ccccc1	133 µM
Cc1cn([C@H]2C[C@H](N=[N+]=[N-])[C@@H](CO)O2)c(=O)[nH]c1=O	37.4 µM
C[C@H](NP(=O)(OC[C@H]1C=C[C@@H](n2cnc3c(N)ncnc32)C1)Oc1ccccc1)C(=O)OCC(C)(C)C	20.2 µM
CS(=O)(=O)c1ccc(OP(=O)(OC[C@@H]2CC[C@H](n3ccc(=O)[nH]c3=O)O2)OC[C@@H]2CC[C@H](n3ccc(=O)[nH]c3=O)O2)cc1	>250 µM
COC(=O)[C@@H](NP(=O)(OC[C@H]1C=C[C@@H](n2cnc3c(N)ncnc32)C1)Oc1ccccc1)C(C)C	152 µM
Cc1cn([C@@H]2O[C@@H](COC(=O)c3ccccc3)C3(OS(=O)(=O)C=C3N)C2O[Si](C)(C)C(C)(C)C)c(=O)[nH]c1=O	88 µg/mL
COC(=O)[C@H](CCSC)NP(=O)(OC[C@H]1C=C[C@@H](n2cnc3c(N)ncnc32)C1)Oc1ccccc1	34.7 µM
Nc1ncnc2c1ncn2[C@H]1CC[C@@H](CO)O1	>500 µM
Nc1nccc2c1ncn2[C@@H]1C[C@H](CO)[C@@H](O)[C@H]1O	1.1 µg/mL
Nc1ccn([C@H]2C=C[C@@H](CO)O2)c(=O)n1	20 µM
COC(=O)C[C@H](NP(=O)(OC[C@H]1C=C[C@@H](n2cnc3c(N)ncnc32)C1)Oc1ccccc1)C(=O)OC	53.5 µM
CSc1ccc(OP(=O)(OC[C@@H]2C=C[C@H](n3cnc4c(=O)[nH]cnc43)O2)OC[C@@H]2C=C[C@H](n3cnc4c(=O)[nH]cnc43)O2)cc1	>250 µM
Cc1cn([C@@H]2O[C@H](C)C3(OS(=O)(=O)C=C3N)[C@H]2O[Si](C)(C)C(C)(C)C)c(=O)[nH]c1=O	48 µg/mL
COC(=O)[C@@H](CC(C)C)NP(=O)(OC[C@H]1C=C[C@@H](n2cnc3c(N)ncnc32)C1)Oc1ccccc1	77.1 µM

CCn: concentration that lowers growth or viability of the cells by n%.